The NIST ThermoML archive (doi:10.1016/j.jct.2012.09.015)

How the values were obtained:
[1] = 101.33 kPa, Liquid; for speed of sound: Sing-around technique in a fixed-path interferometer; for mass density: Vibrating tube method
[2] = xn = mol fraction of the nth substance listed; settings: 101 kPa, Liquid, Vibrating tube method

CCCCOP(=O)(OCCCC)OCCCC [tributyl phosphate]
[1]
Settings	mass density [kg/m3]	speed of sound [m/s]
298.15 K	973.85	1272
303.15 K	969.44	1255
308.15 K	965.04	1238
313.15 K	960.62	1221
318.15 K	956.19	1204
323.15 K	951.75	1188

CCCCOP(=O)(OCCCC)OCCCC [tributyl phosphate] + C1CCCCC1
mass density [kg/m3], [2]
Settings	x1 = 0.099	x1 = 0.1993	x1 = 0.3025	x1 = 0.4042	x1 = 0.5063	x1 = 0.6083	x1 = 0.7024	x1 = 0.8027	x1 = 0.902
298.15 K	814.12	846.89	874.05	896.02	914.55	930.06	942.9	954.19	964.39
303.15 K	809.42	842.23	869.46	891.48	910.06	925.63	938.5	949.8	960.02
308.15 K	804.71	837.55	864.84	886.94	905.53	921.2	934.1	945.4	955.65
313.15 K	799.98	832.86	860.21	882.38	901.04	916.76	929.69	941.01	951.27
318.15 K	795.24	828.15	855.57	877.81	896.51	912.31	925.28	936.6	946.89
323.15 K	790.47	823.42	850.91	873.23	891.96	907.86	920.86	932.19	942.5
